Reference: PubChem BioAssay AID1259414 (Drosophila RNAi Screening Center, 2018)
Purpose: 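Genome-wide screen for host control of endosymbiont load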 (primary screen). Cells: Drosophila JW18 cells infected with Wolbachia. Reagent: long dsRNA against Drosophila genes, 0.25 µg dsRNA per well of a 384-well plate. Duration: 5 days. Treatment: cells persistently infected with Wolbachia before knock-down; no added drug. Read-out: 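Imaged fluorescence in situ signal for Wolbachia 23S rRNA per DAPI-counted host cell, given as a robust z-score within each plate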. Scale: Wolbachia per cell robust z: higher = more Wolbachia per host cell than the plate typical. Active means: 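Active if absolute robust z reaches 1.5 in two or more of three replicates, leaving out multi- or no-target dsRNAs, genes unexpressed in JW18 and A1 wells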.
The screen tested about 24,000 reagents; below is a random part of those that have a named target and a result. In the full data, about 1,210 (5%) were called active. 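Inactive calls also include excluded dsRNAs with several or no targets, genes unexpressed in JW18, and well A1, regardless of score.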 Unmarked entries are inactive. Names joined by + are all predicted targets of the reagent. No sequences are given here.

gene | DRSC id | Wolbachia per cell robust z, rep 1 | Wolbachia per cell robust z, rep 2 | Wolbachia per cell robust z, rep 3
Ns2 | DRSC06993 | -1.79 | -1.37 | 0.411
Ns2 | DRSC29008 | 0.272 | -0.0558 | 1.17
Lgr4 | DRSC18970 | -4.38 | -1.27 | -10.9
Lgr4 | DRSC19884 | 0.679 | -0.242 | 0.973
Lgr4 | DRSC24434 | 0.184 | 2.06 | -1.09
Polr1F | DRSC02278 | 0.0523 | 0.856 | -0.705
Polr1F | DRSC28047 | 1.09 | 0.697 | -0.133
Faa | DRSC08451 | -0.703 | -0.844 | -0.231
Lcp65Ag3 + Lcp65Ag1 + Lcp65Ag2 | DRSC11215 | 0.389 | 0.302 | 1.73
Dpck | DRSC12575 | 0.364 | -0.743 | -2.07
Dpck | DRSC41443 | 0.00889 | -1.75 | 0.193
Cfp1 | DRSC18128 | 0.533 | 0.785 | -0.156
CG15535 | DRSC15071 | -0.0974 | 0.0388 | -0.769
ValRS | DRSC06864 | 1.13 | -0.255 | 1.04
CG42733 | DRSC25375 | -2.02 | 0.499 | -0.452
Obp58c | DRSC04166 | -0.15 | -0.0499 | 0.476
CG3566 | DRSC18311 | -5.31 | -0.233 | -1.01
CG3566 | DRSC29311 | 0.253 | 0.175 | -2.48
blp | DRSC15757 | -0.3 | 0.339 | 0.426
blp | DRSC28887 | -0.773 | 0.692 | 0.933
CAH7 | DRSC15524 | 0.609 | -0.637 | 0.201
TwdlW | DRSC15540 | 0.577 | 0.26 | -0.0849
TwdlW | DRSC25402 | -0.701 | 1.07 | 0.322
Not11 | DRSC04204 | -0.783 | 0.258 | -0.206
CG18371 | DRSC06733 | -0.962 | 0.28 | 0.587
CG18371 | DRSC41426 | 1.21 | 0.812 | 0.287
Gcat | DRSC09719 | 0.729 | -0.612 | -0.351
Gcat | DRSC26093 | -2.2 | 0.802 | -0.806
CG9297 | DRSC16469 | 0.734 | 1.42 | -0.36
CG9297 | DRSC25256 | -0.487 | 0.352 | 1.81
CG42464 | DRSC40647 | 0.31 | -2.02 | -1.58
exu | DRSC07615 | -0.281 | 0.304 | -0.834
CG42272 | DRSC08766 | 0.243 | 0.361 | -8.13
CG42272 | DRSC22502 | -1.2 | 0.418 | 0.773
CG42272 | DRSC23490 | -2.25 (active) | -2.02 | -5.37
CG42272 | DRSC27670 | 0.522 | 0.0276 | 0.352
LManIII | DRSC03221 | -0.589 | -0.459 | -0.24
LManIII | DRSC29001 | 0.671 | 1.42 | 1.07
CG42518 + MED9 | DRSC06917 | -3.68 | -2.23 | -10.3
APC4 | DRSC18360 | 0.059 | 0.105 | -4.62
APC4 | DRSC29994 | -0.15 | 0.764 | -0.923
PrBP | DRSC03189 | -0.396 | 0.506 | 1.04
PrBP | DRSC25862 | 0.684 | 0.554 | 1.1
Arr2 | DRSC09670 | -1.79 | 1.12 | 0.488
RNaseZ | DRSC06845 | -0.997 | 0.0548 | 0.00233
Vmat | DRSC06961 | 0.305 | -0.0266 | 0.47
Vmat | DRSC06962 | -2.5 (active) | -2.49 | -1.28
Vmat | DRSC22223 | -1.31 | -0.922 | -0.769
sina + Rh4 | DRSC11396 | -2.74 | -0.494 | -0.729
CG13442 | DRSC06402 | 0.208 | 0.661 | 0.777
CG13442 | DRSC25909 | -1.33 | -1.77 | -1.5
CG13409 | DRSC14585 | 1.2 | 0.41 | 0.943
ntc | DRSC08166 | 0.799 | 0.571 | -0.114
CG11317 | DRSC14299 | -2.61 | -0.366 | 0.21
CG9737 | DRSC16550 | -1.24 | 0.319 | 0.438
Arpc4 | DRSC02917 | 0.0843 | 0.0497 | -0.272
Arpc4 | DRSC29608 | 0.00447 | -0.141 | 2.34
MED15 | DRSC00267 | 0.0801 | -1.37 | -0.722
MED15 | DRSC23615 | 0.331 | 0.662 | -1.4
caly | DRSC07182 | 0.824 | 0.0732 | 0.951
Flad2 | DRSC02531 | 0.23 | -1.28 | -0.632
Flad2 | DRSC27627 | -2.11 | -2.16 | -0.0449
CG9485 | DRSC04557 | 0.887 | 1.2 | -0.00365
mr | DRSC04332 | 0.57 | 0.696 | -0.078
mr | DRSC22856 | 0.317 | -1.21 | 0.147
mr | DRSC29384 | 0.915 | 1.07 | 0.487
HPS4 | DRSC06906 | -2.64 (active) | 0.668 | -1.87
vilya | DRSC18588 | -1.86 | -0.538 | 0.282
CG4646 | DRSC06876 | -0.341 | -0.179 | -1.74
CG5984 | DRSC15930 | 0.197 | 0.676 | 0.263
fiz | DRSC20188 | -0.416 (active) | -7.16 | -1.68
CG15198 | DRSC19645 | -0.276 | -2.33 | -1.26
Isha | DRSC04456 | 1.09 | 1.71 | 1.49
ND-B14.5B | DRSC00346 | 0.372 | -1.48 | 0.48
CG31676 | DRSC02387 | -2.78 | 0.147 | -0.134
CG5850 | DRSC02905 | -0.152 | 0.698 | 2.27
CG43367 | DRSC08299 | -0.597 | 0.62 | -0.292
CG43367 | DRSC08301 | 0.36 | -1.7 | -0.822
CG43367 | DRSC08309 | 0.00616 | -2.03 | -0.115
CG43367 | DRSC24732 | 1.3 | 0.123 | 0.531
CG10738 | DRSC09792 | 0.507 | -0.0566 | -2.89
CG10738 | DRSC24408 | -1.19 | -0.793 | -0.139
CG3631 | DRSC15503 | -0.343 | 0.048 | -0.0514
CG3631 | DRSC29768 | -1.76 (active) | -0.437 | -7.84
Obp19d | DRSC20569 | -0.889 | 0.549 | 0.0709
Mitofilin | DRSC16742 | 0.651 | -0.218 | 1.07
CG17687 | DRSC10279 | -0.114 | 0.828 | -0.734
CG17687 | DRSC25837 | 0.495 | -0.171 | 0.246
